Measured data: PubChem BioAssay AID1224833 (University of Georgia, 2016)

Test: 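Host factors restraining rotavirus as candidate antiviral genes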 (primary screen)
Cells: monkey MA104 kidney cells
Reagents: siRNA pool against human genes, 50 nM
Timing: 48 h knock-down before infection; read 24 h after infection
Conditions: infection with rotavirus strain RV3 two days after transfection; infectious dose for this stage not given
Measurement: 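Rotavirus antigen per well by fluorescent immunoassay, normalised to non-targeting control wells on each plate and given as a standard z-score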
Scale: z-score vs non-targeting control: higher = more rotavirus replication than with non-targeting control
Hit rule: In these data the active calls have z-score vs non-targeting control at about -1 or lower, or at about 1 or higher
Calls: active = z-score beyond 1 either way; inactive = z-score within 1 of zero
Shown is one part, drawn at random, of about 12,000 reagents tested. Of all reagents, about 5,600 (46%) are marked active. 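Active calls cover z-scores past 1 in both directions, so they include lowered as well as raised rotavirus replication.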 A number with no mark means an inactive call. No sequences are given here.

Against SP5 (Sp5 transcription factor), the entry reads z-score vs non-targeting control -1.59 (active). GNB5 (G protein subunit beta 5) scored z-score vs non-targeting control -2.01 (active). RPS17 (ribosomal protein S17) scored z-score vs non-targeting control -4.15 (active). TACR1 (tachykinin receptor 1) showed z-score vs non-targeting control -1.02 (active). For APOM (apolipoprotein M), the values are z-score vs non-targeting control -1.67 (active). TPM4 (tropomyosin 4) gave z-score vs non-targeting control -0.919.

After knock-down of CCT7 (chaperonin containing TCP1 subunit 7), the record shows z-score vs non-targeting control -1.1 (active). For GJB5 (gap junction protein beta 5), the values are z-score vs non-targeting control -2 (active). Silencing of IL17REL (interleukin 17 receptor E like) gave: z-score vs non-targeting control 1.11 (active). Against KIAA0232 the deposit lists z-score vs non-targeting control -0.473. Against TOM1L1 (target of myb1 like 1 membrane trafficking protein), the entry reads z-score vs non-targeting control 0.222. After knock-down of RPL36 (ribosomal protein L36) the results were z-score vs non-targeting control -2.79 (active).

For CEBPB (CCAAT enhancer binding protein beta) the deposit lists z-score vs non-targeting control 2.28 (active). With knock-down of CHTF8 (chromosome transmission fidelity factor 8) the results were z-score vs non-targeting control 0.877. After knock-down of CCL4L2 (C-C motif chemokine ligand 4 like 2), the record shows z-score vs non-targeting control 0.839. EME1 (essential meiotic structure-specific endonuclease 1) showed z-score vs non-targeting control -0.124. VWC2 (von Willebrand factor C domain containing 2) gave z-score vs non-targeting control 1.15 (active). DHX34 (DExH-box helicase 34) showed z-score vs non-targeting control -1.95 (active).

HSBP1 (heat shock factor binding protein 1) scored z-score vs non-targeting control 0.691. With knock-down of DPYSL4 (dihydropyrimidinase like 4), the screen gave z-score vs non-targeting control 0.526. FUNDC1 (FUN14 domain containing 1) scored z-score vs non-targeting control 0.0235. After knock-down of KIR3DL1 the results were z-score vs non-targeting control -0.733. After knock-down of DHRS12 (dehydrogenase/reductase 12) the results were z-score vs non-targeting control -1.17 (active). CLNK (cytokine dependent hematopoietic cell linker) showed z-score vs non-targeting control -1.11 (active).

PLAC8L1 (PLAC8 like 1) showed z-score vs non-targeting control -2.4 (active). Against SSBP2 (single stranded DNA binding protein 2) the deposit lists z-score vs non-targeting control 0.125. ADAM22 (ADAM metallopeptidase domain 22) scored z-score vs non-targeting control 0.705. Silencing of RORB (RAR related orphan receptor B) resulted in: z-score vs non-targeting control -0.747. Silencing of DSP (desmoplakin) gave: z-score vs non-targeting control -0.137. After knock-down of U2AF1L4 (U2 small nuclear RNA auxiliary factor 1 like 4), the record shows z-score vs non-targeting control -2.66 (active).

Depletion of GPHRB (golgi pH regulator B) resulted in: z-score vs non-targeting control -1.25 (active). For CELF3 (CUGBP Elav-like family member 3), the entry reads z-score vs non-targeting control 0.172.

Ordered by “z-score vs non-targeting control” (descending): some entries from above.
VWC2 (von Willebrand factor C domain containing 2) — z-score vs non-targeting control: 1.15 (active)
CCL4L2 (C-C motif chemokine ligand 4 like 2) — z-score vs non-targeting control: 0.839
HSBP1 (heat shock factor binding protein 1) — z-score vs non-targeting control: 0.691
EME1 (essential meiotic structure-specific endonuclease 1) — z-score vs non-targeting control: -0.124
DHX34 (DExH-box helicase 34) — z-score vs non-targeting control: -1.95 (active)
